Results of unrelated studies side by side (data: NIAID ChemDB).

Common to all: tests in culture; organism: Candida albicans; method: agar diffusion; measure: zone

Conditions beyond the fields shown may differ between rows. An empty or dashed field is not shown. Zones are inhibition diameters on agar.

SMILES,dose,strain or isolate,result
C[C@@H]1[C@H](O)[C@@H](C)/C=C/C=C/CC/C=C/C=C/C=C/C=C/C(O[C@H]2O[C@H](C)[C@@H](O)[C@H](N)[C@@H]2O)CC2O[C@](O)(CC(O)C(O)CCC(O)CC(O)CC(O)CC(=O)O[C@H]1C)CC(O)C2C(=O)O,0.00001 µg/mL,CCMB 226,24.2 mm
Cc1ccc(N2NOC(=O)C2S(=O)(=O)Nc2ccc(-n3c(-c4c(Cl)cccc4[N+](=O)[O-])nc4ccccc4c3=O)cc2)cc1,250 µg/mL,MTCC 227,21 mm
Cc1ccc2c(c1)C1(C(=O)N2)C2=C(C(=O)c3ccccc3C2=O)C2CCCN21,50 µg/mL,-,0 mm
O=c1c(O)c(-c2ccco2)oc2ccc(Cl)cc12,100 µg/mL,-,18 mm
CCCCc1nc(Cl)c(-c2cc(-c3ccc(C)cc3)nc3c2C(=O)c2ccccc2-3)n1Cc1ccccc1,10 µg/disc,MTCC 7253,10 mm
Cc1ccc(N2NOC(=O)C2S(=O)(=O)Nc2nc(-c3ccc(Cl)cc3Cl)cs2)cc1,250 µg/mL,MTCC 227,18 mm
O=C1C2=C(C(=O)c3ccccc31)C1(C(=O)Nc3ccc(Cl)cc31)N1CCCC21,50 µg/mL,-,0 mm
CC(/C=C/[C@@]1(C)[C@H](C)CCC(=O)[C@@H]1C)=C\Cc1c(O)c(Cl)c(C)c(C=O)c1O,10 µg/disc,ATCC 64548,10 mm
Cc1ccc(-c2oc3ccccc3c(=O)c2O)cc1,100 µg/mL,-,14 mm
C(/C=C/c1ccccc1)=NCCNCCN=C/C=C/c1ccccc1.[Cl][Hg][Cl],10000 µg/mL,-,24 mm
CCCCc1nc(Cl)c(-c2cc(-c3ccc(Br)s3)nc3c2C(=O)c2ccccc2-3)n1Cc1ccccc1,10 µg/disc,MTCC 7253,9 mm
C[C@@H]1[C@H](O)[C@@H](C)/C=C/C=C/CC/C=C/C=C/C=C/C=C/C(O[C@H]2O[C@H](C)[C@@H](O)[C@H](N)[C@@H]2O)CC2O[C@](O)(CC(O)C(O)CCC(O)CC(O)CC(O)CC(=O)O[C@H]1C)CC(O)C2C(=O)O,10 µg/disc,-,25 mm
Cc1ccc(O)c(/C=N/NC(=O)Nc2nc(-c3ccccc3)cs2)c1,100 µg/mL,-,14 mm
C[C@@H]1[C@H](O)[C@@H](C)/C=C/C=C/CC/C=C/C=C/C=C/C=C/C(O[C@H]2O[C@H](C)[C@@H](O)[C@H](N)[C@@H]2O)CC2O[C@](O)(CC(O)C(O)CCC(O)CC(O)CC(O)CC(=O)O[C@H]1C)CC(O)C2C(=O)O,30 µg/disc,ATCC 10231,25 mm
[Na+].[O-]Cl,50000 µg/mL,ATCC 10231,19 mm
C[C@@H]1[C@H](O)[C@@H](C)/C=C/C=C/CC/C=C/C=C/C=C/C=C/C(O[C@H]2O[C@H](C)[C@@H](O)[C@H](N)[C@@H]2O)CC2O[C@](O)(CC(O)C(O)CCC(O)CC(O)CC(O)CC(=O)O[C@H]1C)CC(O)C2C(=O)O,100 µg/disc,ATCC 10231,30 mm
CC(=O)OCC1=C(C(=O)O)N2C(=O)[C@@H](NC(=O)Cc3cccs3)[C@H]2SC1,30 µg,ATCC 10231,6 mm
O=c1c(O)c(-c2ccc(Cl)cc2)oc2ccc(Cl)cc12,100 µg/mL,-,15 mm
CCCCc1nc(Cl)c(-c2cc(-c3ccc4sc5ccccc5c4c3)nc3c2C(=O)c2ccccc2-3)n1Cc1ccccc1,10 µg/disc,MTCC 7253,14 mm
C[C@@H]1[C@H](O)[C@@H](C)/C=C/C=C/CC/C=C/C=C/C=C/C=C/C(O[C@H]2O[C@H](C)[C@@H](O)[C@H](N)[C@@H]2O)CC2O[C@](O)(CC(O)C(O)CCC(O)CC(O)CC(O)CC(=O)O[C@H]1C)CC(O)C2C(=O)O,35 µg/disc,-,18 mm
CCCCc1nc(Cl)c(-c2cc(-c3ccc(Br)cc3)nc3c2C(=O)c2ccccc2-3)n1Cc1ccccc1,10 µg/disc,MTCC 7253,10 mm
O=C(N[C@H]([C@H](O)CNCc1cccc(I)c1)C(F)(F)c1ccccc1)OCc1ccccc1,50 µg/disc,Hongo,0 mm
COC(=O)CCCNC(=O)CSC1=CC(=O)c2cccc(OC)c2C1=O,100 µg/well,FRCA,0 mm
COc1cc2oc(=O)ccc2cc1CC(O)C(C)(C)O,250 µg/disc,-,8 mm
COc1ccc(-c2oc3ccc(Cl)cc3c(=O)c2O)cc1OC,100 µg/mL,-,18 mm
COC(=O)[C@H](C)NC(=O)CSC1=CC(=O)c2cccc(OC)c2C1=O,100 µg/well,FRCA,0 mm
CC(C)(CN=C/C=C/c1ccccc1[N+](=O)[O-])CN=C/C=C/c1ccccc1[N+](=O)[O-],5 mg/disc,-,21 mm
C=C1CC[C@H]2O[C@]2(C)CC[C@@H]2[C@@H]1CC2(C)C,35 µg/disc,-,33 mm
CCC(C)[C@H](NC(=O)CSC1=C(C)C(=O)c2cccc(OC)c2C1=O)C(=O)OC,100 µg/well,FRCA,0 mm
Cc1ccc(N2NOC(=O)C2S(=O)(=O)Nc2nc3cc(C)ccc3s2)cc1,250 µg/mL,MTCC 227,22 mm
CC(=O)Oc1c(-c2ccc(C)cc2)oc2ccccc2c1=O,100 µg/mL,-,15 mm
C(/C=C/c1ccccc1)=NCCNCCN=C/C=C/c1ccccc1.[I][Hg][I],20000 µg/mL,-,40 mm
Cc1ccc(N2NOC(=O)C2S(=O)(=O)Nc2nc(-c3ccc([N+](=O)[O-])cc3)cs2)cc1,250 µg/mL,MTCC 227,17 mm

A second listing of 4 rows from above:

SMILES	dose	strain or isolate	result
C[C@@H]1[C@H](O)[C@@H](C)/C=C/C=C/CC/C=C/C=C/C=C/C=C/C(O[C@H]2O[C@H](C)[C@@H](O)[C@H](N)[C@@H]2O)CC2O[C@](O)(CC(O)C(O)CCC(O)CC(O)CC(O)CC(=O)O[C@H]1C)CC(O)C2C(=O)O	30 µg/disc	ATCC 10231	25 mm
Cc1ccc(N2NOC(=O)C2S(=O)(=O)Nc2nc(-c3ccc([N+](=O)[O-])cc3)cs2)cc1	250 µg/mL	MTCC 227	17 mm
Cc1ccc2c(c1)C1(C(=O)N2)C2=C(C(=O)c3ccccc3C2=O)C2CCCN21	50 µg/mL	-	0 mm
CCCCc1nc(Cl)c(-c2cc(-c3ccc(Br)s3)nc3c2C(=O)c2ccccc2-3)n1Cc1ccccc1	10 µg/disc	MTCC 7253	9 mm